Results on eleven compounds are retold here after ChEMBL document CHEMBL5346973 (J Med Chem, 2023).

By UniProt entry, the sequences of proteins in these tests, tags left out. Residues count along the entry.
UniProt P04756, 21-457 limits assumed: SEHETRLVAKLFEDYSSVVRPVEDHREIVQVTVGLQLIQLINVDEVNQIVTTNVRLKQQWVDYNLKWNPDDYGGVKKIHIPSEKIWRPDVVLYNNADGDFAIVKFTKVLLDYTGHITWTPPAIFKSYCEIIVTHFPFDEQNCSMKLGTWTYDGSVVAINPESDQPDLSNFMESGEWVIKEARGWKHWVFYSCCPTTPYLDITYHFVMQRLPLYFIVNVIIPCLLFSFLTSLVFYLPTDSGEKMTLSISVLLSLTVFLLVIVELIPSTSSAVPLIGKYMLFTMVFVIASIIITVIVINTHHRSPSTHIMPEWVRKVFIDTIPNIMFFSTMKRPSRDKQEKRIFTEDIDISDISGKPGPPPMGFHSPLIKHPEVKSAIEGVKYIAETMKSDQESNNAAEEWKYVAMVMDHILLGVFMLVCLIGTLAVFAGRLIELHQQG
UniProt P09690, 24-501 limits assumed: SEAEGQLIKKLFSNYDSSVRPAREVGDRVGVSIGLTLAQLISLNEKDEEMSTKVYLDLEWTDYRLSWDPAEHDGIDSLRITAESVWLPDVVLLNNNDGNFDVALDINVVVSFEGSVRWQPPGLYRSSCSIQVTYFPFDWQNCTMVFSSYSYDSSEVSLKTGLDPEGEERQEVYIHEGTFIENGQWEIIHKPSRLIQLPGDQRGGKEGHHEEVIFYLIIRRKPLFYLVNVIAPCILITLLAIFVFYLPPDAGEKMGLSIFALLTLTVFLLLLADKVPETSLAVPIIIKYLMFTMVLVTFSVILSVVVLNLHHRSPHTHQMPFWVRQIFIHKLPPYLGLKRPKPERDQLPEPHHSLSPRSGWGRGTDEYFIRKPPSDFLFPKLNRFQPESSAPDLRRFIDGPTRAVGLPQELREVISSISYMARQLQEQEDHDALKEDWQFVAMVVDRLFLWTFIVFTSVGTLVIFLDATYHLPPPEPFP
UniProt P02716, 25-520 limits assumed: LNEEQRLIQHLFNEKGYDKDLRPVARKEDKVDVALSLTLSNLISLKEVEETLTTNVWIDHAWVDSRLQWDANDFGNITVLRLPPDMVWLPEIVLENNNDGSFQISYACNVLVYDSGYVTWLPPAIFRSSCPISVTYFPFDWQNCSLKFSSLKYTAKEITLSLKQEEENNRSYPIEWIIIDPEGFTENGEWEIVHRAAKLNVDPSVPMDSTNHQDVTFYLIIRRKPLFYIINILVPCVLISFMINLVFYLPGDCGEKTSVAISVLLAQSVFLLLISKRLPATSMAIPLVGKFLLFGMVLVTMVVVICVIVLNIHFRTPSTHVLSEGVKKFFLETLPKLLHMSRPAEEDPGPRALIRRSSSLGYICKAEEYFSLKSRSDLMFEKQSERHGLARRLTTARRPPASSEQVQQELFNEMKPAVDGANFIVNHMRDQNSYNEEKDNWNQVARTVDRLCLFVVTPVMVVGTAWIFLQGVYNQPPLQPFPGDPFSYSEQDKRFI
UniProt P20782, 21-493 limits assumed: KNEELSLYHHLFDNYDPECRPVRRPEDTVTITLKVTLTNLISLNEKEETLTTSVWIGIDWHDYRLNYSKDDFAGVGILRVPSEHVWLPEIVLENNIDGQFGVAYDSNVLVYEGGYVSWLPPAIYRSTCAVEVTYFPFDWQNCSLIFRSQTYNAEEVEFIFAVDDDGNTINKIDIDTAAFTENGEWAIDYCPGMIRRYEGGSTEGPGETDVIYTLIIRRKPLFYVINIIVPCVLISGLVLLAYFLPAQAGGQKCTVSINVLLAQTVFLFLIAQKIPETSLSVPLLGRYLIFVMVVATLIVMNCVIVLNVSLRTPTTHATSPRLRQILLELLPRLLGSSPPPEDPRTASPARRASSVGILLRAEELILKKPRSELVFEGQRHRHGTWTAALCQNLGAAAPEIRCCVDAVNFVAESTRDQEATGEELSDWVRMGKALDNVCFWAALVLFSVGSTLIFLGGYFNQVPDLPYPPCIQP

A word on the IC50: it is the concentration needed to halve the response being measured.

The assay has as its target Nicotinic acetylcholine receptor alpha1/beta1/epsilon/delta (Mus musculus, UniProt P04756+P09690+P02716+P20782). The assay is described as follows: Antagonist activity at mouse alpha1beta1deltaepsilon nACh receptor expressed in Xenopus oocyte assessed as inhibition of acetylcholine-induced response at -70 mV holding potential by voltage-clamp based electrophysiological assay.

On to `CC[C@H](C)[C@@H]1NC(=O)[C@H](C)NC(=O)[C@H](CCCNC(=N)N)NC(=O)[C@@H](NC(=O)[C@H](Cc2ccc(O)cc2)NC(=O)[C@H](CCCNC(=N)N)NC(=O)[C@H](CCCNC(=N)N)NC(=O)[C@H](CCCNC(=N)N)NC(=O)[C@H](CCCNC(=N)N)NC(=O)[C@H](CC(=O)O)NC(=O)[C@H](Cc2ccc(O)cc2)NC(=O)[C@@H]2CCCN2C(=O)[C@H](CO)NC(=O)[C@H](CCCNC(=N)N)NC(=O)[C@@H]2CSSC[C@H](NC(=O)[C@@H](N)[C@@H](C)O)C(=O)N[C@@H](CCCNC(=N)N)C(=O)N[C@@H](CO)C(=O)N[C@@H](CO)C(=O)NCC(=O)N[C@@H](CCCNC(=N)N)C(=O)N[C@@H](Cc3ccc(O)cc3)C(=O)N2)CSSC[C@@H](C(=O)N[C@H](C(=O)O)C(C)C)NC(=O)[C@H](C)NC(=O)[C@H](CC(=O)O)NC(=O)[C@H]([C@@H](C)O)NC1=O`, for which the IC50 is 5.49 µM.
As to `CC[C@H](C)[C@@H]1NC(=O)[C@H](CCCNC(=N)N)NC(=O)[C@H](CCCNC(=N)N)NC(=O)[C@@H](NC(=O)[C@H](Cc2ccc(O)cc2)NC(=O)[C@H](CCCNC(=N)N)NC(=O)[C@H](CCCNC(=N)N)NC(=O)[C@H](CCCNC(=N)N)NC(=O)[C@H](CCCNC(=N)N)NC(=O)[C@H](CC(=O)O)NC(=O)[C@H](Cc2ccc(O)cc2)NC(=O)[C@@H]2CCCN2C(=O)[C@H](C)NC(=O)[C@H](CCCNC(=N)N)NC(=O)[C@@H]2CSSC[C@H](NC(=O)[C@@H](N)[C@@H](C)O)C(=O)N[C@@H](CCCNC(=N)N)C(=O)N[C@@H](CO)C(=O)N[C@@H](CO)C(=O)NCC(=O)N[C@@H](CCCNC(=N)N)C(=O)N[C@@H](Cc3ccc(O)cc3)C(=O)N2)CSSC[C@@H](C(=O)N[C@H](C(=O)O)C(C)C)NC(=O)[C@H](C)NC(=O)[C@H](CC(=O)O)NC(=O)[C@H]([C@@H](C)O)NC1=O`, the IC50 was 1.1 µM.
For the compound `CC[C@H](C)[C@@H]1NC(=O)[C@H](CCCNC(=N)N)NC(=O)[C@H](CCCNC(=N)N)NC(=O)[C@@H]2CSSC[C@H](NC(=O)[C@H](Cc3ccc(O)cc3)NC(=O)[C@H](CCCNC(=N)N)NC(=O)CNC(=O)[C@H](CO)NC(=O)[C@H](CO)NC(=O)[C@H](CCCNC(=N)N)NC(=O)[C@@H](NC(=O)[C@@H](N)[C@@H](C)O)CSSC[C@@H](C(=O)N[C@@H](C)C(=O)O)NC(=O)[C@H](C)NC(=O)[C@H](CC(=O)O)NC(=O)[C@H]([C@@H](C)O)NC1=O)C(=O)N[C@@H](CCCNC(=N)N)C(=O)N[C@@H](CO)C(=O)N1CCC[C@H]1C(=O)N[C@@H](Cc1ccc(O)cc1)C(=O)N[C@@H](CC(=O)O)C(=O)N[C@@H](CCCNC(=N)N)C(=O)N[C@@H](CCCNC(=N)N)C(=O)N[C@@H](CCCNC(=N)N)C(=O)N[C@@H](CCCNC(=N)N)C(=O)N[C@@H](Cc1ccc(O)cc1)C(=O)N2`, the IC50 stood at 1.25 µM.
Turning to `CC[C@H](C)[C@@H]1NC(=O)[C@H](CCCNC(=N)N)NC(=O)[C@H](CCCNC(=N)N)NC(=O)[C@@H]2CSSC[C@H](NC(=O)[C@H](Cc3ccc(O)cc3)NC(=O)[C@H](C)NC(=O)CNC(=O)[C@H](CO)NC(=O)[C@H](CO)NC(=O)[C@H](CCCNC(=N)N)NC(=O)[C@@H](NC(=O)[C@@H](N)[C@@H](C)O)CSSC[C@@H](C(=O)N[C@H](C(=O)O)C(C)C)NC(=O)[C@H](C)NC(=O)[C@H](CC(=O)O)NC(=O)[C@H]([C@@H](C)O)NC1=O)C(=O)N[C@@H](CCCNC(=N)N)C(=O)N[C@@H](CO)C(=O)N1CCC[C@H]1C(=O)N[C@@H](Cc1ccc(O)cc1)C(=O)N[C@@H](CC(=O)O)C(=O)N[C@@H](CCCNC(=N)N)C(=O)N[C@@H](CCCNC(=N)N)C(=O)N[C@@H](CCCNC(=N)N)C(=O)N[C@@H](CCCNC(=N)N)C(=O)N[C@@H](Cc1ccc(O)cc1)C(=O)N2`, the IC50 was 3.5 µM.
As for `CC[C@H](C)[C@@H]1NC(=O)[C@H](CCCNC(=N)N)NC(=O)[C@H](CCCNC(=N)N)NC(=O)[C@@H](NC(=O)[C@H](Cc2ccc(O)cc2)NC(=O)[C@H](CCCNC(=N)N)NC(=O)[C@H](CCCNC(=N)N)NC(=O)[C@H](CCCNC(=N)N)NC(=O)[C@H](CCCNC(=N)N)NC(=O)[C@H](CC(=O)O)NC(=O)[C@H](Cc2ccc(O)cc2)NC(=O)[C@@H]2CCCN2C(=O)[C@H](CO)NC(=O)[C@H](CCCNC(=N)N)NC(=O)[C@@H]2CSSC[C@H](NC(=O)[C@@H](N)[C@@H](C)O)C(=O)N[C@@H](CCCNC(=N)N)C(=O)N[C@@H](CO)C(=O)N[C@@H](CO)C(=O)NCC(=O)N[C@@H](CCCNC(=N)N)C(=O)N[C@@H](Cc3ccc(O)cc3)C(=O)N2)CSSC[C@@H](C(=O)N[C@@H](C)C(=O)O)NC(=O)[C@H](C)NC(=O)[C@H](CC(=O)O)NC(=O)[C@H]([C@@H](C)O)NC1=O`, the IC50 is 1.69 µM.
In the case of `CC[C@H](C)[C@@H]1NC(=O)[C@H](CCCNC(=N)N)NC(=O)[C@H](CCCNC(=N)N)NC(=O)[C@@H]2CSSC[C@H](NC(=O)[C@H](Cc3ccc(O)cc3)NC(=O)[C@H](CCCNC(=N)N)NC(=O)CNC(=O)[C@H](CO)NC(=O)[C@H](CO)NC(=O)[C@H](CCCNC(=N)N)NC(=O)[C@@H](NC(=O)[C@@H](N)[C@@H](C)O)CSSC[C@@H](C(=O)N[C@H](C(=O)O)C(C)C)NC(=O)[C@H](C)NC(=O)[C@H](CC(=O)O)NC(=O)[C@H]([C@@H](C)O)NC1=O)C(=O)N[C@@H](CCCNC(=N)N)C(=O)N[C@@H](CO)C(=O)N1CCC[C@H]1C(=O)N[C@@H](Cc1ccc(O)cc1)C(=O)N[C@@H](CC(=O)O)C(=O)N[C@@H](C)C(=O)N[C@@H](CCCNC(=N)N)C(=O)N[C@@H](CCCNC(=N)N)C(=O)N[C@@H](CCCNC(=N)N)C(=O)N[C@@H](Cc1ccc(O)cc1)C(=O)N2`, the IC50 came to 0.64 µM.
As to `CC[C@H](C)[C@@H]1NC(=O)[C@H](CCCNC(=N)N)NC(=O)[C@H](CCCNC(=N)N)NC(=O)[C@@H](NC(=O)[C@H](Cc2ccc(O)cc2)NC(=O)[C@H](C)NC(=O)[C@H](CCCNC(=N)N)NC(=O)[C@H](CCCNC(=N)N)NC(=O)[C@H](CCCNC(=N)N)NC(=O)[C@H](CC(=O)O)NC(=O)[C@H](Cc2ccc(O)cc2)NC(=O)[C@@H]2CCCN2C(=O)[C@H](CO)NC(=O)[C@H](CCCNC(=N)N)NC(=O)[C@@H]2CSSC[C@H](NC(=O)[C@@H](N)[C@@H](C)O)C(=O)N[C@@H](CCCNC(=N)N)C(=O)N[C@@H](CO)C(=O)N[C@@H](CO)C(=O)NCC(=O)N[C@@H](CCCNC(=N)N)C(=O)N[C@@H](Cc3ccc(O)cc3)C(=O)N2)CSSC[C@@H](C(=O)N[C@H](C(=O)O)C(C)C)NC(=O)[C@H](C)NC(=O)[C@H](CC(=O)O)NC(=O)[C@H]([C@@H](C)O)NC1=O`, the IC50 turned out to be 6.83 µM.
Turning to `CC(C)[C@H](NC(=O)[C@@H]1CSSC[C@H](NC(=O)[C@@H](N)[C@@H](C)O)C(=O)N[C@@H](CCCNC(=N)N)C(=O)N[C@@H](CO)C(=O)N[C@@H](CO)C(=O)NCC(=O)N[C@@H](CCCNC(=N)N)C(=O)N[C@@H](Cc2ccc(O)cc2)C(=O)N[C@H]2CSSC[C@H](NC(=O)[C@H](Cc3ccc(O)cc3)NC(=O)[C@H](CCCNC(=N)N)NC(=O)[C@H](CCCNC(=N)N)NC(=O)[C@H](CCCNC(=N)N)NC(=O)[C@H](CCCNC(=N)N)NC(=O)[C@H](CC(=O)O)NC(=O)[C@H](Cc3ccc(O)cc3)NC(=O)[C@@H]3CCCN3C(=O)[C@H](CO)NC(=O)[C@H](CCCNC(=N)N)NC2=O)C(=O)N[C@@H](CCCNC(=N)N)C(=O)N[C@@H](CCCNC(=N)N)C(=O)N[C@@H](C)C(=O)N[C@@H]([C@@H](C)O)C(=O)N[C@@H](CC(=O)O)C(=O)N[C@@H](C)C(=O)N1)C(=O)O`, the IC50 was 0.93 µM.
As to `CC[C@H](C)[C@@H]1NC(=O)[C@H](CCCNC(=N)N)NC(=O)[C@H](CCCNC(=N)N)NC(=O)[C@@H](NC(=O)[C@H](Cc2ccc(O)cc2)NC(=O)[C@H](CCCNC(=N)N)NC(=O)[C@H](CCCNC(=N)N)NC(=O)[C@H](CCCNC(=N)N)NC(=O)[C@H](CCCNC(=N)N)NC(=O)[C@H](CC(=O)O)NC(=O)[C@H](Cc2ccc(O)cc2)NC(=O)[C@@H]2CCCN2C(=O)[C@H](CO)NC(=O)[C@H](CCCNC(=N)N)NC(=O)[C@@H]2CSSC[C@H](NC(=O)[C@@H](N)[C@@H](C)O)C(=O)N[C@@H](CCCNC(=N)N)C(=O)N[C@@H](CO)C(=O)N[C@@H](CO)C(=O)NCC(=O)N[C@@H](CCCNC(=N)N)C(=O)N[C@@H](C)C(=O)N2)CSSC[C@@H](C(=O)N[C@H](C(=O)O)C(C)C)NC(=O)[C@H](C)NC(=O)[C@H](CC(=O)O)NC(=O)[C@H]([C@@H](C)O)NC1=O`, the IC50 worked out at 1.92 µM.
Regarding `CC[C@H](C)[C@@H]1NC(=O)[C@H](CCCNC(=N)N)NC(=O)[C@H](CCCNC(=N)N)NC(=O)[C@@H](NC(=O)[C@H](Cc2ccc(O)cc2)NC(=O)[C@H](CCCNC(=N)N)NC(=O)[C@H](CCCNC(=N)N)NC(=O)[C@H](CCCNC(=N)N)NC(=O)[C@H](CCCNC(=N)N)NC(=O)[C@H](C)NC(=O)[C@H](Cc2ccc(O)cc2)NC(=O)[C@@H]2CCCN2C(=O)[C@H](CO)NC(=O)[C@H](CCCNC(=N)N)NC(=O)[C@@H]2CSSC[C@H](NC(=O)[C@@H](N)[C@@H](C)O)C(=O)N[C@@H](CCCNC(=N)N)C(=O)N[C@@H](CO)C(=O)N[C@@H](CO)C(=O)NCC(=O)N[C@@H](CCCNC(=N)N)C(=O)N[C@@H](Cc3ccc(O)cc3)C(=O)N2)CSSC[C@@H](C(=O)N[C@H](C(=O)O)C(C)C)NC(=O)[C@H](C)NC(=O)[C@H](CC(=O)O)NC(=O)[C@H]([C@@H](C)O)NC1=O`, the IC50 was 0.8 µM.
In the case of `CC[C@H](C)[C@@H]1NC(=O)[C@H](CCCNC(=N)N)NC(=O)[C@H](CCCNC(=N)N)NC(=O)[C@@H](NC(=O)[C@H](Cc2ccc(O)cc2)NC(=O)[C@H](CCCNC(=N)N)NC(=O)[C@H](CCCNC(=N)N)NC(=O)[C@H](CCCNC(=N)N)NC(=O)[C@H](CCCNC(=N)N)NC(=O)[C@H](CC(=O)O)NC(=O)[C@H](Cc2ccc(O)cc2)NC(=O)[C@@H]2CCCN2C(=O)[C@H](CO)NC(=O)[C@H](CCCNC(=N)N)NC(=O)[C@@H]2CSSC[C@H](NC(=O)[C@@H](N)[C@@H](C)O)C(=O)N[C@@H](CCCNC(=N)N)C(=O)N[C@@H](CO)C(=O)N[C@@H](CO)C(=O)NCC(=O)N[C@@H](CCCNC(=N)N)C(=O)N[C@@H](Cc3ccc(O)cc3)C(=O)N2)CSSC[C@@H](C(=O)N[C@H](C(=O)O)C(C)C)NC(=O)[C@H](C)NC(=O)[C@@H](C)NC(=O)[C@H]([C@@H](C)O)NC1=O` it was 3.32 µM.
